Pooled drug test results. Numbers come from NIAID ChemDB, via PubChem.

Common to all: whole-cell or culture tests; agent: HIV-1; read by: cytopathic effect / MTT; read-out: fold resistance

Fold resistance has wild type as its base. Conditions beyond the fields shown may differ between rows. Blank or dashed fields: not listed here.

SMILES,mutations,strain or isolate,cell line,result
CC(=O)Oc1ccc(/C=C/C(=O)O[C@H](C(=O)O)[C@H](OC(=O)/C=C/c2ccc(OC(C)=O)c(OC(C)=O)c2)C(=O)O)cc1OC(C)=O,AR177-resistant,NL4-3,MT-4,>12
Nc1ccn([C@H]2CC[C@@H](CO)O2)c(=O)n1,RT-A98S,Recombinant mutant,MT-4,0.3
O=C1c2ccccc2C(=O)N1CCOC(=S)N(C(=O)c1cccs1)c1ccc([N+](=O)[O-])cc1,RT-Y181C,N119 nevirapine-resistant (RT Y181C),MT-4,0.109
CCc1c(C)[nH]c(=O)c(N(C)C)c1C(=O)c1cccc(/C(C)=C/C#N)c1,RT-K101E K103N,,MT-4,25
Nc1nc(NC2CC2)c2ncn([C@H]3C=C[C@@H](CO)C3)c2n1,RT-Q151M,,MT-2,2.2
CCn1c(=O)c(C)cn([C@@H]2O[C@H](CO[Si](C)(C)C(C)(C)C)C3(OS(=O)(=O)C=C3N)[C@H]2O[Si](C)(C)C(C)(C)C)c1=O,RT-A98S,Recombinant mutant,MT-4,0.4
CCc1cccc2c1nc(-c1c(F)cccc1F)n2Cc1c(F)cccc1F,RT-K101E,,MT-4,17.1
CCOC(=O)c1cn(C)cc1S(=O)(=O)c1cc(Cl)ccc1N,RT-Y181C,Clinical isolate,MT-4,≥23
Clc1cc(CN2CCCNCCNCCCNCC2)c(Cl)cc1CN1CCCNCCNCCCNCC1,AMD3100-resistant,NL4-3,MT-4,18.9
CC(C)=CCN1Cc2cc(Cl)cc3[nH]c(=S)n(c23)C[C@@H]1C,RT-E138K,IIIB,MT-4,3
CC(C)Nc1cccnc1N1CCN(C(=O)c2cc3cc(NS(C)(=O)=O)ccc3[nH]2)CC1,RT-K103N,,MT-4,39.7
Cc1cc(C)cc(Cc2c(CC(C)C)c(C)[nH]c(=O)c2N(C)C)c1,RT-Y181C,Recombinant,MT-4,78.7
CCc1c(Sc2cc(C)cc(C)c2)n(COCCOP(=O)(O)OC[C@H]2O[C@@H](n3cc(C)c(=O)[nH]c3=O)C[C@@H]2N=[N+]=[N-])c(=O)[nH]c1=O,RT-D67N K70R K172R,IIIB,MT-4,5
O=C1c2ccccc2C(=O)N1CCOC(=S)N(C(=O)c1ccccc1)c1ccc(Cl)cc1,RT-K103R V179D P225H,IIIB,MT-4,>1000
CN(C)c1cccc2c1nc(-c1c(F)cccc1F)n2Cc1c(F)cccc1F,RT-V108I,,MT-4,6.4
Nc1nc2c(ncn2[C@H]2CO[C@@H](CO)O2)c(=O)[nH]1,RT-Q151M,,MT-2,9.6
c1ccc(C2OCc3nc4ccccc4n32)cc1,RT-E138K,TSAO-resistant (RT E138K),CEM,>0.402
c1cc(CN2CCCNCCCNCCNCCC2)ccc1CN1CCCNCCCNCCNCCC1,AMD3100-resistant,NL4-3,MT-4,66.25
CC(C)=CCOCn1c(Cc2cc(C)cc(C)c2)c(C(C)C)c(=O)[nH]c1=O,RT-K103N Y181C,IIIB,MT-4,173333
Fc1cccc(F)c1C1SCc2nc3ccccc3n21,RT-E138K,IIIB,,1.24
C1CNCCNCCCN2CCCNCCNCCCN(C1)CC2,AMD3100-resistant,NL4-3,MT-4,>6.96
CCc1c(C)[nH]c(=O)c(N(C)C)c1C(=O)c1cc(Cl)cc(Cl)c1,RT-Y181C,,MT-4,16
CC(C)=CCn1cc2c(c1)S(=O)(=O)c1cc(Cl)ccc1NC2=S,RT-Y181C,Clinical isolate,MT-4,≥42.9
Fc1cccc(F)c1Cn1c(-c2c(F)cccc2F)nc2c(Br)cccc21,RT-L100I,,MT-4,0.6
Fc1cccc(F)c1Cn1c(-c2c(F)cccc2F)nc2c(Br)cccc21,RT-Y188C,,MT-4,6.8
CC(=O)Nc1cccc2c1nc(-c1c(F)cccc1F)n2Cc1c(F)cccc1F,RT-V106A,,MT-4,>12.5
COC(=O)N[C@@H](Cc1c[nH]c2ccccc12)C(=O)NCCCC[C@@H](CO)N(CC(C)C)S(=O)(=O)c1ccc(N)cc1,PR-V82F I84V,RF2802 (PR-V82F I84V),MT-4,0.9
COc1cc(CN2CCCNCCNCCCNCC2)c(OC)cc1CN1CCCNCCNCCCNCC1,AMD3100-resistant,NL4-3,MT-4,12
CCc1c(Sc2cc(C)cc(C)c2)n(COCCO)c(=O)[nH]c1=O,RT-Y181C,IIIB MKC-442-resistant (RT Y181C),MT-4,343
CCc1c(C)[nH]c(=O)c(N(C)C)c1C(=O)c1cccc(Br)c1,RT-K101E,,MT-4,7
CCOCn1c(Cc2ccccc2)c(C(C)C)c(=O)[nH]c1=O,RT-Y181C,IIIB,MT-4,2200
CCc1c(C)[nH]c(=O)c(N(C)C)c1C(=O)c1cccc(/C=C/c2cnccn2)c1,RT-Y181C,,MT-4,3.9
CC(=O)Nc1cccc2c1nc(-c1c(F)cccc1F)n2Cc1c(F)cccc1F,RT-V106A,,MT-4,>12.5
CC(=O)c1ccc(C)cc1NC(C(N)=O)c1c(Cl)cccc1Cl,RT-E138A S162C E169D T200A L214F,HXB2 (RT E138A S162C E169D T200A L214F) Clinical isolate,MT-4,33
Cc1cn([C@H]2C=C[C@@H](COC(=O)NCCSC(=O)OC[C@@H]3CC[C@H](n4cnc5c(=O)[nH]cnc54)O3)O2)c(=O)[nH]c1=O,RT-K103R V179D P225H,EFV-resistant (RT K103R V179D P225H),MT-4,>0.47
Cc1ccnc2c1NC(=O)c1cccnc1N2C1CC1,RT-L100I,TIBO-resistant L100I (RT-L100I),MT-4,4.18
Cc1cn([C@H]2C[C@H](N=[N+]=[N-])[C@@H](COC(=O)NCCSC(=O)OC[C@H]3O[C@@H](n4cc(C)c(=O)[nH]c4=O)C[C@@H]3N=[N+]=[N-])O2)c(=O)[nH]c1=O,RT-K103N Y181C,NNRTI-resistant (RT K103N Y181C),MT-4,1
Fc1cccc(Cl)c1C1OCc2nc3ccccc3n21,RT-E138K,TSAO-resistant (RT E138K),CEM,≥3.86
COC(=O)c1cc(CN2CCCNCCNCCCNCC2)ccc1CN1CCCNCCNCCCNCC1,AMD3100-resistant,NL4-3,MT-4,>30.9
Cc1cn([C@H]2C[C@H](N=[N+]=[N-])[C@@H](CO)O2)c(=O)[nH]c1=O,RT-L100I,TIBO-resistant L100I (RT-L100I),MT-4,0.2
O=C1c2ccccc2C(=O)N1CCOC(=S)N(C(=O)c1ccc(Cl)cc1)c1ccc(Cl)cc1,RT-K103N Y181C,A17,MT-4,>4000
CCc1c(C)[nH]c(=O)c(N(C)C)c1C(=O)c1cccc(/C=C/C#N)c1,RT-Y188L,,MT-4,158
O=c1[nH]cnc2c1ncn2[C@H]1CC[C@@H](CO)O1,RT-K103N Y181C,NNRTI-resistant (RT K103N Y181C),MT-4,0.9
Nc1cccc2c1nc(-c1c(F)cccc1F)n2Cc1c(F)cccc1F,RT-D67N K70R L100I T215Y K219Q,4XAZT/L100I (RT D67N K70R L100I T215Y K219Q),MT-4,0.75
c1ccc2c(CN3CCCNCCNCCCNCC3)cc(CN3CCCNCCNCCCNCC3)cc2c1,AMD3100-resistant,NL4-3,MT-4,>125
O=C1c2ccccc2C(=O)N1CCOC(=S)N(C(=O)c1ccccc1)c1ccccc1,RT-Y181C,N119 nevirapine-resistant (RT Y181C),MT-4,>250
CCCc1c(C)[nH]c(=O)c(N(C)C)c1Cc1cc(C)cc(C)c1,RT-K103N,Recombinant,MT-4,1.99
CN(C)c1cccc2c1nc(-c1c(F)cccc1F)n2Cc1c(F)cccc1F,RT-V108I,,MT-4,6.4
C1CNCCNCCCN(CCCN2CCCNCCNCCCNCC2)CCNC1,AMD3100-resistant,NL4-3,MT-4,>71.4
COc1c(O)c(I)c2c(c1OC)-c1c(c(I)c(O)c(OC)c1OC)C[C@H](C)[C@H](C)C2,RT-L100I,TIBO-resistant L100I (RT-L100I),MT-4,2.54
O=S(=O)(O)OC1C(OS(=O)(=O)O)C(OS(=O)(=O)O)C(OS(=O)(=O)O)C(OS(=O)(=O)O)C1OS(=O)(=O)O,GP120-R302S,NL4-3,MT-4,>25
COc1ccc2c(c1)N(C(=O)OC(C)C)[C@@H](CSC)C(=S)N2,RT-A98S E138A,Recombinant mutant,MT-4,1.6

For reference, 7 entries again:

SMILES | mutations | strain or isolate | cell line | result
CCc1c(C)[nH]c(=O)c(N(C)C)c1C(=O)c1cccc(/C(C)=C/C#N)c1 | RT-K101E K103N |  | MT-4 | 25
Fc1cccc(Cl)c1C1OCc2nc3ccccc3n21 | RT-E138K | TSAO-resistant (RT E138K) | CEM | ≥3.86
Cc1ccnc2c1NC(=O)c1cccnc1N2C1CC1 | RT-L100I | TIBO-resistant L100I (RT-L100I) | MT-4 | 4.18
CC(=O)Nc1cccc2c1nc(-c1c(F)cccc1F)n2Cc1c(F)cccc1F | RT-V106A |  | MT-4 | >12.5
c1cc(CN2CCCNCCCNCCNCCC2)ccc1CN1CCCNCCCNCCNCCC1 | AMD3100-resistant | NL4-3 | MT-4 | 66.25
Clc1cc(CN2CCCNCCNCCCNCC2)c(Cl)cc1CN1CCCNCCNCCCNCC1 | AMD3100-resistant | NL4-3 | MT-4 | 18.9
O=C1c2ccccc2C(=O)N1CCOC(=S)N(C(=O)c1ccccc1)c1ccccc1 | RT-Y181C | N119 nevirapine-resistant (RT Y181C) | MT-4 | >250